Results deposited as PubChem BioAssay AID624099 (ICCB-Longwood, 2012).
Shown is one part, drawn at random, of about 21,000 deposited reagents. 497 of all reagents (2.4%) count as active. 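Higher z means weaker E2 silencing; only reporter increases were scored, and knock-downs that hurt cell survival may mask genuine repressor factors.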

Purpose: 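Knock-downs relieving repression by E2 of an HPV18 LCR luciferase reporter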 (primary screen)
System: human C33A cervical carcinoma cells (HPV-negative) stably expressing BPV1 E2 and an HPV18 LCR luciferase reporter
Reagent: siRNA pool against human genes, 40 nM
Timing: 72 h
Detection: 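Per-well luciferase luminescence, z-scored on each plate against the plate mean and SD with control wells left out, then averaged across three replicate plates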
Reading the numbers: mean z-score and z-score: higher = stronger reporter signal, weaker E2 silencing
Rule for the call: 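Hit if mean z-score reaches 2 and two or more of three replicate z-scores also reach 2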

no.	gene symbol	PubChem SID	mean z-score	z-score, replicate A	z-score, replicate B	z-score, replicate C	Call
1	ADAMTS16	SID134311196	-0.83	-0.82	-0.83	-0.85	inactive
2	L1TD1	SID134321875	-1.83	-1.77	-1.96	-1.78	inactive
3	IRX4	SID134324497	2.17	1.99	2.19	2.33	active
4	PPM1H	SID134326709	-0.06	0.12	-0.09	-0.2	inactive
5	COQ4	SID134324636	-0.23	-0.69	0.19	-0.19	inactive
6	C1orf220	SID134329620	-0.34	-0.38	-0.13	-0.51	inactive
7	LINC02370	SID134326737	0.89	0.12	1.12	1.44	inactive
8	YWHAE	SID134321243	0.44	-0.09	0.5	0.91	inactive
9	THAP7-AS1	SID134322015	-0.1	-0.06	-0.11	-0.14	inactive
10	TRAP1	SID134314744	2.46	2.28	2.55	2.54	active
11	PIGX	SID134317992	1.9	2.3	1.76	1.64	inactive
12	FAM90A25P	SID134327968	0.19	0.22	0.45	-0.11	inactive
13	CYP1B1	SID134313163	-0.42	-0.35	-0.56	-0.33	inactive
14	TCHH	SID134323413	0.45	0.76	0.57	0.03	inactive
15	RBAK	SID134317344	1.29	1.13	1.15	1.61	inactive
16	TFB1M	SID134324628	-1.71	-2.31	-1.76	-1.06	inactive
17	C1QBP	SID134315580	0.53	0.74	0.57	0.27	inactive
18	PSORS1C2	SID134324393	-0.31	-0.15	-0.64	-0.13	inactive
19	HTR1F	SID134311076	-0.24	-0.15	-0.26	-0.33	inactive
20	CHCHD3	SID134324444	1.19	1.19	1.08	1.3	inactive
21	VAMP5	SID134321602	-0.47	-0.68	-0.52	-0.21	inactive
22	PUS7L	SID134318815	-1.24	-1.46	-1.2	-1.06	inactive
23	SPRY2	SID134310804	0.03	0.05	-0.1	0.13	inactive
24	NLGN4X	SID134314863	-0.44	-0.6	-0.12	-0.62	inactive
25	BAAT	SID134313134	0.96	1.27	0.7	0.9	inactive
26	GPR156	SID134310951	-1.44	-1.18	-1.6	-1.54	inactive
27	GPR65	SID134311029	0.65	0.69	0.97	0.3	inactive
28	SERINC3	SID134315067	-0.43	-0.21	-0.49	-0.58	inactive
29	ASNS	SID134314131	0.44	0.64	0.13	0.56	inactive
30	FRG1	SID134316180	-1.34	-1.43	-1.31	-1.29	inactive
31	CD109	SID134319423	-0.37	-0.48	0.02	-0.65	inactive
32	LOC392145	SID134327779	0.17	0.14	0.25	0.13	inactive
33	LOC392145	SID134327931	0.1	-0.26	0.26	0.29	inactive
34	CIMAP1A	SID134319249	0.74	1.44	0.19	0.57	inactive
35	TP53TG1	SID134315068	0.51	0.58	0.27	0.67	inactive
36	TNFAIP8	SID134324269	-0.57	-0.88	-0.37	-0.48	inactive
37	NFKBID	SID134310327	0.12	0.2	0.16	-0.01	inactive
38	ATP8A1	SID134313068	1.64	1.45	1.61	1.88	inactive
39	ACACA	SID134310515	-0.76	-0.1	-0.9	-1.27	inactive
40	DAGLA	SID134316498	-0.52	-0.46	-0.63	-0.47	inactive
41	ATP6V1C1	SID134317374	-0.84	-0.8	-0.78	-0.94	inactive
42	RFX1	SID134314775	0.09	0.07	0.24	-0.05	inactive
43	DIRAS3	SID134313519	0.71	0.65	0.9	0.57	inactive
44	CUTALP	SID134329737	0	-0.08	0.06	0.01	inactive
45	BTG4	SID134317593	1.18	1.33	0.91	1.31	inactive
46	GGA2	SID134317158	0.27	0.29	0.25	0.29	inactive
47	SRRM2-AS1	SID134328678	0.18	0.71	0.03	-0.21	inactive
48	LINC00052	SID134320733	-0.83	-0.76	-1.06	-0.68	inactive
49	ESRRB	SID134309855	-0.76	-0.64	-0.7	-0.93	inactive
50	MAPK15	SID56478879	-0.99	-0.63	-1.04	-1.31	inactive
51	LOC728114 (retired record)	SID134326689	-0.65	-0.43	-0.71	-0.81	inactive
52	LOC202546 (retired record)	SID134326203	-0.01	0.34	0.18	-0.54	inactive
53	CFAP68	SID134317953	-0.36	-0.7	-0.09	-0.29	inactive
54	NCAPD2	SID134324802	0.07	-0.05	0.22	0.03	inactive
55	GLTP	SID134321195	0.95	1	0.8	1.04	inactive
56	EME1	SID134320413	-0.76	-0.98	-0.67	-0.64	inactive
57	OR2M4	SID134326958	0.99	0.9	0.73	1.33	inactive

Single entries from the list.
Under “z-score, replicate B”, BTG4 [SID134317593] has 0.91
Entry for TNFAIP8 [SID134324269] under “mean z-score”: -0.57
C1QBP [SID134315580], mean z-score = 0.53
Entry of IRX4 [SID134324497] in “mean z-score”: 2.17
